Where “and” joins values, the source holds several entries; their conditions need not be identical. Equal values may be shown once.
Test system: HIV-1 IIIb
Conditions: MT-4 cells, high-density dose response

Structure (SMILES) | Hill slope
O=C(NCc1c(F)cc(F)cc1F)c1cn2c(c(O)c1=O)C(=O)N1[C@H]3CC[C@H](C3)O[C@@H]1C2 [BIC, Bictegravir] | ~2.1 and 2.1 ± 0.3
C[C@@H]1CCO[C@H]2Cn3cc(C(=O)NCc4ccc(F)cc4F)c(=O)c(O)c3C(=O)N12 [DTG, Dolutegravir] | 2.0 ± 0.3

From paper PMC5118987 (Antimicrobial Agents and Chemotherapy, 2016)
